The values that follow come from article PMC12510174 (International Journal of Biological Sciences, 2025).

This assay has as its system RB cells.

For `O=c1c(-c2ccc(O)cc2)coc2cc(O)cc(O)c12` [genistein], the “reduction of Pri-MP uptake relative to vehicle controls” value is less than 10%.
